Data taken from patent US9975848B2, “Inhibitors of HIV-1 entry and methods of use thereof” (priority 2014, dated 2018).

Key:
JR-FL = assay: Infection by single-round luciferase viruses, HIV-1 JR-FL envelope; assay type: cell-based; details: read-out: JR-FL; recombinant luciferase virus, Cf2Th-CCR5-CD4 target cells, 48 h; tested form: bis-trifluoroacetate (by analogy with th)
A-MLV = assay: Infection by single-round luciferase viruses, control A-MLV envelope; assay type: cell-based, amphotropic murine leukemia virus; details: read-out: A-MLV; control virus, Cf2Th-CCR5-CD4 target cells, 48 h; tested form: bis-trifluoroacetate (by analogy with th)
AD8 = assay: Infection by single-round luciferase viruses, HIV-1 AD8 envelope; assay type: cell-based; details: read-out: AD8; recombinant luciferase virus, Cf2Th-CCR5-CD4 target cells, 48 h; tested form: bis-trifluoroacetate (by analogy with th)

| Compound | IC50 (JR-FL) | IC50 (A-MLV) | IC50 (AD8) |
| --- | --- | --- | --- |
| CNCc1ccc2c(c1)C[C@@H](CNC(=N)N)[C@@H]2NC(=O)C(=O)Nc1ccc(Cl)c(F)c1 | > 100 µM | > 100 µM |  |
| CNCc1ccc2c(c1)[C@@H](NC(=O)C(=O)Nc1ccc(Cl)c(F)c1)[C@H](CNC(=N)N)C2 | > 100 µM | > 100 µM | > 100 µM |
